Target: AnkXG108C:PC:Rab1b:GDP complex (Homo sapiens, UniProt Q9H0U4)
Assay: X-ray crystal structure, […] A
Conditions: GDP in the Rab1b nucleotide site; Rab1b covalently linked to AnkX

By UniProt entry, the sequences of proteins in these tests, tags left out. Where a name states a change or a piece, a line headed by the entry shows the natural chain unless it says otherwise.
UniProt Q9H0U4: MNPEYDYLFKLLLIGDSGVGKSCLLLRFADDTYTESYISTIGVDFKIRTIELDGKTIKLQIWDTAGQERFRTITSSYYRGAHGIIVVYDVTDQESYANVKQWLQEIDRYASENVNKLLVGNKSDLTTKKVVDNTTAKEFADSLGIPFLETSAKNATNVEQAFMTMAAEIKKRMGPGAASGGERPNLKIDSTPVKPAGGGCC

SMILES: Nc1nc2c(ncn2[C@@H]2O[C@H](COP(=O)(O)OP(=O)(O)O)[C@@H](O)[C@H]2O)c(=O)[nH]1
- X-ray crystal structure, 3.2 A: x-ray crystal structure of the covalent ternary AnkXG108C:PC:Rab1b:GDP complex
